Measured values from several laboratories, pooled; numbers as filed in NIAID ChemDB.

Shared fields: whole-cell or culture tests; organism: HIV-1; method: cytopathic effect / XTT; read-out: EC50

ECn: concentration that inhibits the pathogen or its effect by n%.

| structure | cell line | mutations | strain | result |
|---|---|---|---|---|
| CCOCn1c([Se]c2cc(C)cc(C)c2)c(CC)c(=O)[nH]c1=O | CEM + CEM-SS |  | RF | 0.0089 µM |
| O[C@@H]1CSSC[C@H]1O | CEM + CEM-SS |  | RF | >200 µM |
| O=S1(=O)[C@H](Cc2ccccc2)[C@H](OCc2cncs2)[C@H](O)[C@@H](O)[C@@H](OCc2cncs2)[C@H]1Cc1ccccc1 | MT-2 |  | IIIB | <2 µM |
| O=S1(=O)CCCCS1 | CEM + CEM-SS |  | RF | >5.7 µM |
| Cc1cccc([Se]c2c(C(C)C)c(=O)[nH]c(=O)n2COCCO)c1 | CEM + CEM-SS |  | RF | 0.07 µM |
| C/C=C/CSc1cc(NC(=S)c2ccsc2C)ccc1Cl | CEM + CEM-SS |  | SK1 | 0.08 µM |
| CNC(=O)[C@@H](NC(=O)[C@H](OCc1ccccc1)[C@@H](O)[C@H](O)[C@@H](OCc1ccccc1)C(=O)N[C@H](C(=O)NC)C(C)C)C(C)C | MT-4 |  |  | 24 µM |
| Cc1cn([C@H]2C[C@H](N=[N+]=[N-])[C@@H](CO)O2)c(=O)[nH]c1=O | CEM + CEM-SS |  | IIIB | 0.004 µM |
| OCC1(CO)CSSC1 | CEM + CEM-SS |  | RF | >200 µM |
| Cc1cn([C@H]2C[C@H](N=[N+]=[N-])[C@@H](CO)O2)c(=O)[nH]c1=O | MT-2 | RT-L74V | Site-directed mutant | 0.7 µM |
| CC(=O)O[C@H]1CSS(=O)(=O)C[C@H]1OC(C)=O | CEM + CEM-SS |  | RF | >9.2 µM |
| Fc1cccc(F)c1C1SCc2nc3ccccc3n21 | CEM + CEM-SS | RT-P236L | IIIB HEPT-resistant (RT P236L) | 0.3 µM |
| O=S1(=O)[C@H](Cc2ccccc2)[C@H](OCc2ccccc2)[C@H](O)[C@@H](O)[C@@H](OCc2ccccc2)[C@@H]1Cc1ccccc1 | MT-2 |  | IIIB | 10–50 µM |
| O=c1[nH]cnc2c1ncn2[C@H]1CC[C@@H](CO)O1 | MT-2 |  | HXB2 | 4.3 µM |
| CC[C@H](C)[C@H](NC(=O)[C@H](OCc1ccccc1)[C@H](O)[C@@H](O)[C@@H](OCc1ccccc1)C(=O)N[C@H](C(=O)NC)[C@@H](C)CC)C(=O)NC | MT-4 |  |  | 0.06 µg/mL |
| O=S1CCCCS1 | CEM + CEM-SS |  | RF | >26.2 µM |
| Cc1occc1C(=S)Nc1ccc(Cl)c(/C=N/OC(C)(C)C)c1 | CEM + CEM-SS | RT-L74V | NL4-3 (RT L74V) | 0.07 µM |
| O=S1CC(CO)(CO)CS1 | CEM + CEM-SS |  | RF | >200 µM |
| O=[N+]([O-])c1cccc(CO[C@@H]2[C@H](O)[C@@H](O)[C@@H](OCc3cccc([N+](=O)[O-])c3)[C@@H](Cc3ccccc3)S(=O)(=O)[C@@H]2Cc2ccccc2)c1 | MT-2 |  | IIIB | <2 µM |
| Cc1cn([C@H]2C[C@H](N=[N+]=[N-])[C@@H](CO)O2)c(=O)[nH]c1=O | U-937 |  | IIIB | 0.003 µM |
| NC(=O)C(c1ccccc1)(c1ccccc1)[C@H]1CCCN(CCc2ccc3c(c2)CCO3)C1 | MT-2 |  | NL4-3 | 1.3 µM |
| NC(=O)C(c1ccccc1)(c1ccccc1)[C@H]1CCCN(CCOc2ccccc2)C1 | MT-2 |  | NL4-3 | 1.1 µM |
| CCCc1cc(=O)oc2c3c(c4c(c12)OC(C)(C)C=C4)O[C@H](C)[C@@H](C)[C@@H]3O | CEM + CEM-SS |  | RF | 0.27 µM |
| Cc1cn([C@H]2C[C@H](N=[N+]=[N-])[C@@H](CO)O2)c(=O)[nH]c1=O | CEM + CEM-SS | RT-Y181C | UC040-R (RT-Y181C) | 0.008 µM |
| O=C(NC1c2ccccc2C[C@H]1O)[C@H](OCc1ccccc1)[C@H](O)[C@@H](O)[C@@H](OCc1ccccc1)C(=O)NC1c2ccccc2C[C@H]1O | MT-4 |  |  | 0.11 µM |
| Nc1nc(=O)n([C@@H]2CS[C@H](CO)O2)cc1F | MT-2 |  | LAI (RT-Q151M) Recombinant | 1.4 µM |
| Cc1ccc(OS(=O)(=O)c2ccccc2[N+](=O)[O-])cc1 | CEM + CEM-SS |  | RF | 4.3 µM |
| O=S1[C@H](Cc2ccccc2)[C@H](OCc2ccccc2)[C@H](O)[C@@H](O)[C@@H](OCc2ccccc2)[C@H]1Cc1ccccc1 | MT-2 |  | IIIB | <2 µM |
| Cc1cccc([Se]c2c(C(C)C)c(=O)[nH]c(=S)n2COCCO)c1 | CEM + CEM-SS |  | RF | 0.054 µM |
| CC(C)(C)OC(=O)N[C@@H](Cc1ccccc1)[C@H](O)CNC[C@@H](O)[C@H](Cc1ccccc1)NC(=O)C(C)(O)C(C)(C)C | CEM + CEM-SS |  | RF | 0.06 µM |
| O=[N+]([O-])c1ccccc1S(=O)(=O)Oc1ccc(Cl)cc1 | CEM + CEM-SS |  | RF | 3.7 µM |
| O=[N+]([O-])c1cccc(CO[C@@H]2[C@H](O)[C@@H](O)[C@@H](OCc3cccc([N+](=O)[O-])c3)[C@@H](Cc3ccccc3)S(=O)[C@@H]2Cc2ccccc2)c1 | MT-2 |  | IIIB | <2 µM |
| NC(=O)C(c1ccccc1)(c1ccccc1)[C@H]1CCCN(CCc2ccc3c(c2)CCO3)C1 | MT-2 |  | IIIB | >32 µM |
| CC(C)[C@H]1C(=O)O[C@H](C(C)C)C(=O)N(C)[C@@H](C(C)C)C(=O)O[C@H](C(C)C)C(=O)N(C)[C@@H](C(C)C)C(=O)O[C@H](C(C)C)C(=O)N1C | CEM + CEM-SS |  |  | 0.01 µg/mL |
| CN(C)c1nc(CO[C@@H]2[C@H](O)[C@@H](O)[C@@H](OCc3csc(N(C)C)n3)[C@@H](Cc3ccccc3)S(=O)(=O)[C@@H]2Cc2ccccc2)cs1 | MT-2 |  | IIIB | 2–10 µM |
| Nc1nc(N)c2ncn([C@H]3CO[C@@H](CO)O3)c2n1 | MT-2 |  | LAI | 12.5 µM |
| CC(=O)O[C@@H]1CSS(=O)C[C@H]1OC(C)=O | CEM + CEM-SS |  | RF | >22.1 µM |
| Cc1cn([C@H]2C[C@@H]3[C@@H](COCN3O)O2)c(=O)[nH]c1=O | CEM + CEM-SS |  |  | 2.5 µM |
| O=S(=O)(c1ccccc1)c1ccccc1 | CEM + CEM-SS |  | RF | 49 µM |
| CCc1c(Sc2ccccn2)n(COCc2ccccc2)c(=O)[nH]c1=O | CEM + CEM-SS |  | NL4-3 | 0.018 µM |
| O=[N+]([O-])c1ccccc1S(=O)(=O)c1ccc(Cl)cc1 | CEM + CEM-SS |  | RF | 11 µM |
| NC(=O)C(c1ccccc1)(c1ccccc1)C1CCCN(CCC2CCCCC2)C1 | MT-2 |  | NL4-3 | 4.7 µM |
| COc1ccc(S(=O)(=O)c2ccccc2[N+](=O)[O-])cc1 | CEM + CEM-SS |  | RF | 22 µM |
| Cc1ccnc2c1NC(=O)c1cccnc1N2C1CC1 | CEM + CEM-SS | RT-A98G V108I | IIIB | 0.61 µM |
| O=S1C[C@H](OCc2ccccc2)[C@H](O)[C@@H](O)[C@@H](OCc2ccccc2)[C@H]1Cc1ccccc1 | MT-2 |  | IIIB | 10–50 µM |
| Cc1ccc(S(=O)(=O)c2ccccn2)cc1 | CEM + CEM-SS |  | RF | 92 µM |

Blank or dashed fields: not listed here. a–b is a range or a potency band. Conditions beyond the fields shown may differ between rows.